Results published in paper PMC11317875 (Chemical Science, 2024).

tested on: Mycobacterium tuberculosis; assay: Analysis of F-Glc metabolites in Mtb cytosolic extracts; assay type: cell-based; details: 100 μM probe

Row | SMILES | cleavage to fluorinated glucose (F-Glc) in cytosolic extracts
1 | OC[C@H]1O[C@H](O[C@H]2O[C@H](CO)[C@@H](O)[C@H](O)[C@H]2F)[C@H](O)[C@@H](O)[C@@H]1O [2F-Tre, 2-deoxy-2-fluoro-trehalose] | low levels of 2F-Glc
2 | OC[C@H]1O[C@H](O[C@H]2O[C@H](CO)[C@@H](O)[C@H](F)[C@H]2O)[C@H](O)[C@@H](O)[C@@H]1O [3F-Tre, 3-deoxy-3-fluoro-trehalose] | does not occur
3 | OC[C@H]1O[C@H](O[C@H]2O[C@H](CF)[C@@H](O)[C@H](O)[C@H]2O)[C@H](O)[C@@H](O)[C@@H]1O [6F-Tre, 6-deoxy-6-fluoro-trehalose] | does not occur
